Where “and” joins values, the source holds several entries; their conditions need not be identical. Equal entries are not always repeated.
Key:
[1] = system: SARS-CoV-2 replication in Vero E6 cells; assay: Cell-based antiviral activity assay (qRT-PCR of viral copies in supernatant); details: single independent experiment
SARS-CoV-2 3CLpro = SARS-CoV-2 3CLpro (Severe acute respiratory syndrome coronavirus 2, UniProt P0DTD1); assay: FRET-based protease assay, SARS-CoV-2 3CLpro; format: biochemical; details: for IC50: single independent experiment

SMILES | EC50 [1] | inhibition ratio (%) (SARS-CoV-2 3CLpro; 50 µM, individual replicates of independent experiments) | IC50 (SARS-CoV-2 3CLpro)
CC(C)CCOc1cc(O)c2c(=O)c(O)c(-c3cc(O)c(O)c(O)c3)oc2c1 | 33.5 µM and 32.1 µM and 31 µM | 85.5333% and 82.1542% | 2.1 µM and 1.84 µM and 1.81 µM
CCOc1cc(O)c2c(=O)c(O)c(-c3cc(O)c(O)c(O)c3)oc2c1 | 47.6 µM and 42 µM and 60.1 µM | – | 0.67 µM and 0.79 µM and 0.77 µM

From paper PMC8206078, “Identification of pyrogallol as a warhead in design of covalent inhibitors for the SARS-CoV-2 3CL protease” (Nature Communications, 2021)
